The exact form of at least one protein or probe is not confirmed.
Tested on: CsoR
Assay: EMSA
Settings: apo (metal-free) CsoR, anaerobic, 0-100 uM, 20 mM Hepes, 100 mM NaCl, pH 7.0, 1 mM DTT, 0.4 mg/ml BSA, 100 ng/ul poly(dI-dC), 100 nM target DNA + 100 nM control DNA, 30 min, room temperature, recombinant protein, residues 1-97, label: none (SYBR Safe stain), probe letters rebuilt from the primers and the genome, part of a longer molecule

Sequence	binding result
CTTTAAGAATATTAATATATGACTTGTGTTGGTAATGATAACCTTGGTTAGAGTGTATTGTCATGTGATAGTTAAGATTAGATCTTTTAATTAAAACATTGTTTTAAATATCGATGACAAGGTCTAATGTAGGACGTGTAGATATAAGGTTCGGAATTATATAAATCCATAAAAGGAGATAAATCGAAAACCTTTATACCCTGGGTGGGTATATGTTATAGTATAAGTAGCTTTACTATAACATTTTCATTAGGAGGGGTTAATTTG (double strand) [PcopX]	binds
ATTTCTTTTAAGTCACCTAAGAATTGCAAATCCAGAAGTCATTTAAGTTTTACCTTTCATTCATACATCCTTTAATATTAATTACGACTTCTTTTATATAGATGCTAAGTAGAGAGATTGTTGTGCAATGTTTGCACGGCAATCTCTCTTTTTCTTTTTAAAATTGGTAAAAGTAAAACGCAACGATTGACTTATATACCTATAGGGGGTACATTAGACGTGTAACAATGAATCACAGGGAGGCAATAATGTGG (double strand) [PcopA]	binds
